Experimental data published in article PMC7971878, “ADAM17 is an essential attachment factor for classical swine fever virus” (2021).

Target: pig ADAM17 (a disintegrin and metalloproteinase 17), endogenous in PK15 cells (pig (endogenous in PK15)) (UniProt O77636)
Assay: flow cytometry on cells

**Q.** For “CSFV E2 extracellular domain fused with Fc tag at the C-terminus (sE2-Fc) (Fc fusion)”, which percent decrease of binding with 25 mM 1,10-phenanthroline is on record?
**A.** 74%
